Source: publication PMC4516937 (Toxins, 2015)

Sequences of proteins named here, by UniProt entry; tags and fusion partners are left off. A change or cut given only in a name is not applied to a line headed by its entry.
UniProt Q7XT97: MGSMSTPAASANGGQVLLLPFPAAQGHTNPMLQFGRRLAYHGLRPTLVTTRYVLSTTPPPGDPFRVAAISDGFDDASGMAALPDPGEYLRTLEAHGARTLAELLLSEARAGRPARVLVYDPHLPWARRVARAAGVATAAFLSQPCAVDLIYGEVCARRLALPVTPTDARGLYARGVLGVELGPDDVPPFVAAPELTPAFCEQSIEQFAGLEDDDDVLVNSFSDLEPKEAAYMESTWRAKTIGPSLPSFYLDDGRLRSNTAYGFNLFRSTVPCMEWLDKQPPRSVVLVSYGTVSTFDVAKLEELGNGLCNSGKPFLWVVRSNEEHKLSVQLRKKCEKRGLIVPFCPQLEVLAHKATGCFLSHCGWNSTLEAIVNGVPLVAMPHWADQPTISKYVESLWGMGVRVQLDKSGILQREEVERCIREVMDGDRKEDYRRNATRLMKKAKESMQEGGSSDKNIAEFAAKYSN

Target: OsUGT79 (Oryza sativa, UniProt Q7XT97)

With `CC1=C[C@H]2O[C@@H]3[C@H](O)C[C@](C)([C@@]2(CO)[C@H](O)C1=O)[C@]31CO1` the Km was 230 µM.
